Data taken from US4649911A, “Small particle aerosol generator for treatment of respiratory disease including the lungs” (Baylor College of Medicine, priority 1986, dated 1987).

Tested on: influenza
Conditions: human, in vivo

In the case of `NC(=O)c1ncn([C@@H]2O[C@H](CO)[C@@H](O)[C@H]2O)n1` [ribavirin], the “effectiveness of ribavirin treatment of influenza” value is reported as “establish the effectiveness” and the “safety of the treatment” value is reported as “the treatment is safe”.
